The text below walks through data of paper PMC3153243, “Shiga Toxin Is Transported into the Nucleoli of Intestinal Epithelial Cells via a Carrier-Dependent Process” (Toxins, 2010).

The data set concerns the molecule itself. Briefly: native gel or EMSA. (In EMSA bound probe runs differently from free probe, usually more slowly.)

B1: Shiga toxin B-subunit (recombinant StxB pentamer) (natural protein)
chain: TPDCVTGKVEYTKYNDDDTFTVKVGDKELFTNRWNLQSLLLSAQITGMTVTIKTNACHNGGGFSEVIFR
The term stoichiometry N denotes the number of molecules, sites or subunits per partner or assembly. Take B1: the “stoichiometry N” value amounted to 5.
